Results of unrelated studies side by side (data: NIAID ChemDB).

All rows: tests in culture; species: Varicella zoster virus; read by: plaque count; endpoint: EC50

Rows are shuffled and stem from different studies. ECn: concentration that inhibits the pathogen or its effect by n%. Blank or dashed fields: not listed here.

smiles	strain or isolate	cell line	result
OC[C@H]1O[C@@H](c2cc(C#CBr)c(F)cc2F)C[C@@H]1O	OKA	HEL	29 µM
COc1ccc(CSCc2cnc3c(Br)cc(Br)c(C)n23)cc1	07/1 (TK-)	HEL	>20 µg/mL
Nc1ccn(COC(CO)CO)c(=O)n1	6350	MRC-5	17 µM
CCCCCCCc1cc2cnc(=O)[nH]c2o1	OKA	HEL	>80 µM
O=c1[nH]c(=O)n([C@@H]2O[C@H](CO)[C@@H](O)[C@@H]2F)cc1/C=C/Br	OKA	CCRF-HSB-2	0.023 µM
O=c1[nH]c(=O)n([C@@H]2O[C@H](CO)[C@@H](O)[C@@H]2O)cc1/C=C/Br	YS-W1 H13	HEL	0.0005 µg/mL
CC(=O)OCCOCN1c2nc(Cc3ccccc3)[nH]c2C(N)=NS1(=O)=O	OKA	HEL	>50 µg/mL
CCc1cn([C@H]2C[C@H](O)[C@@H](CO)O2)c(=S)[nH]c1=O	Kanno-Kohmura (TK-)	MRC-5	>288.6 µM
O=c1nc2oc(-c3ccccc3)cc2cn1C1CC[C@@H](CO)O1	OKA (TK+)	HEL	>200 µM
CCCCc1cc2cnc(=O)[nH]c2o1	07/1	HEL	171 µM
CCCOCCOCCCc1cc2cn([C@H]3C[C@H](O)[C@@H](CO)O3)c(=O)nc2o1	OKA	HEL	>200 µM
CC1(C)[C@@H](CCO)C[C@H]1n1nnc2c(N)ncnc21	(TK+)/OKA	HEL	>20 µg/mL
CCCc1cn([C@H]2C[C@H](O)[C@@H](CO)O2)c(=S)nc1N	HOSEN (TK+)	MRC-5	>277.4 µM
CCCCCCCCc1cc2cn([C@@H]3O[C@H](CO)[C@@H](O)[C@@H]3O)c(=O)nc2o1		HEL	3.6 µM
CC(=O)c1c(-c2ccc(OC(F)(F)F)cc2)cc2ccccn12	G-31	MRC-5	>40 µM
CC(O)c1cn([C@@H]2O[C@H](CO)[C@@H](O)[C@@H]2O)c(=S)[nH]c1=O	CAQU (TK+)	MRC-5	>263.5 µM
O=c1[nH]c(=O)n([C@@H]2S[C@H](CO)[C@@H](O)[C@@H]2F)cc1I	OKA	CCRF-HSB-2	17.5 µM
COc1cc(F)c([C@H]2C[C@H](O)[C@@H](CO)O2)cc1[N+](=O)[O-]	TK+/YS	HEL	>200 µM
CCCCCC#Cc1cn(S(=O)(=O)c2ccc(C)cc2)c(=O)[nH]c1=O	07/1	HEL	>16 µM
Nc1ncc2ncn([C@H]3CCC[C@H]3CO)c2n1	YS (TK+)	HEL	>20 µg/mL
Nc1nc2c(ncn2COCCO)c(=O)[nH]1	YS (TK+)	HEL	1.1 µM
CCCc1ccc(-c2cc3cn(C4CC[C@@H](CO)O4)c(=O)nc3o2)cc1	07/1 (TK-)	HEL	>50 µM
O=c1[nH]c(=O)n([C@H]2C[C@H](O)[C@@H](CO)O2)cc1/C=C/Br	(TK-)07/1	HEL	>60 µM
Nc1ncc2ncn(C[C@H]3CCC[C@H]3CO)c2n1	07/1 (TK-)	HEL	>50 µg/mL
CCCCCCCCCCc1cc2cn([C@H]3C[C@H](O)[C@@H](CO)O3)c(=O)nc2o1	YS	HEL	0.008 µM
Nc1nc(N)c2ncn([C@H]3CCC[C@H]3CO)c2n1	YS (TK+)	HEL	>50 µg/mL
Cc1cn([C@H]2C[C@H](O)[C@@H](CO)O2)c(=S)[nH]c1=O	Kanno-Kohmura (TK-)	MRC-5	>302.6 µM
CCCCCCCOCCc1cc2cn([C@H]3C[C@H](O)[C@@H](CO)O3)c(=O)nc2o1	YS	HEL	22 µM
Cc1c(Br)cc(Br)c2ncc(CSCc3ccccc3F)n12	YS (TK+)	HEL	>5 µg/mL
CCc1ccc2cc(-c3ccccc3)cn2c1	G-31	MRC-5	10 µM
Cc1c(Br)cc(Br)c2ncc(CSCc3ccc(F)cc3)n12	OKA (TK+)	HEL	>5 µg/mL
O=c1[nH]c(=S)n([C@@H]2O[C@H](CO)[C@@H](O)[C@@H]2O)cc1CCO	Kanno-Kohmura (TK-)	MRC-5	>244.8 µM
O=[N+]([O-])c1cc([C@H]2C[C@H](O)[C@@H](CO)O2)c(F)cc1F	(TK-)/YS/R	HEL	>50 µM
O=c1nc2oc(CCCOc3ccccc3)cc2cn1[C@H]1C[C@H](O)[C@@H](CO)O1	(TK-)07/1	HEL	>200 µM
Cc1cccn2c(CSCc3ccccc3)cnc12	07/1 (TK-)	HEL	0.4 µg/mL
CN1c2ccccc2C(C)(C)C12C=Nc1c(ccc3ccccc13)O2	OKA (TK+)	HEL	4.5 µM
CC1(C)[C@H](CCO)C[C@@H]1n1cnc2c(Cl)ncnc21	YS (TK+)		>50 µg/mL
CN1c2ccc([N+](=O)[O-])cc2C(C)(C)C12C=Cc1cc([N+](=O)[O-])ccc1O2	07/1 (TK-)	HEL	1.1 µM
Nc1nc(=S)n([C@@H]2O[C@H](CO)[C@@H](O)[C@@H]2O)cc1/C=C/Br	CAQU (TK+)	MRC-5	46.2 µM
Cc1ccc(CSCc2cnc3c(Br)cc(Br)c(C)n23)cc1	YS/R (TK-)	HEL	>20 µg/mL
NC1=NS(=O)(=O)N(Cc2ccccc2)c2nc(Cc3ccccc3)[nH]c21	YS/R (TK-)	HEL	10.2 µg/mL
O=c1[nH]c(=O)n([C@H]2C[C@H](O)[C@@H](CO)O2)cc1I	18	HEL	1.6 µg/mL
Cc1cn([C@@H]2O[C@H](CO)[C@@H](O)[C@@H]2O)c(=S)nc1N	CAQU (TK+)	MRC-5	121 µM
O=c1c2ncn(COC(CO)CO)c2nc2[nH]c(-c3ccccc3)cn12	YS	HEL	3 µg/mL
CCc1ccc(OCCCc2cc3cn([C@H]4C[C@H](O)[C@@H](CO)O4)c(=O)nc3o2)cc1	(TK-)07/1	HEL	>20 µM
CC1(C)[C@@H](CCO)C[C@H]1n1cnc2c(=O)[nH]c(N)nc21	(TK-)/YS/R	HEL	>50 µg/mL
CCCc1cn([C@H]2C[C@H](O)[C@@H](CO)O2)c(=S)[nH]c1=O	Kanno-Kohmura (TK-)	MRC-5	>277.6 µM
O=c1nc2oc(CCOC3CCCCO3)cc2cn1[C@H]1C[C@H](O)[C@@H](CO)O1	YS/R (TK-)	HEL	>40 µM
Nc1nc2c(ncn2COCCO)c(=O)[nH]1	(TK-)/YS/R	HEL	22.2 µg/mL
OC[C@H]1O[C@@H](c2cc(C#CI)c(F)cc2F)C[C@@H]1O	YS	HEL	>20 µM
Cn1cc(C(=O)NCc2ccc(Cl)cc2)c(=O)c2cc(CN3CCOCC3)ccc21	NE varicella isolate	HFF	0.3 µM
OC[C@H]1O[C@@H](c2cc(C(O)CI)c(F)cc2F)C[C@@H]1O	YS/R (TK-)	HEL	>50 µg/mL
Cc1cn([C@@H]2O[C@H](CO)[C@@H](O)[C@@H]2O)c(=O)[nH]c1=O	Kawaguchi		0.153 µg/mL
O=c1nc2oc(CCCCOc3ccccc3)cc2cn1[C@H]1C[C@H](O)[C@@H](CO)O1	(TK-)/YS/R	HEL	>200 µM
Nc1nc2c(ncn2[C@@H]2C[C@H](CO)[C@H]2CO)c(=O)[nH]1	TK+/YS	HEL	0.09 µg/mL
O=c1[nH]c(=O)n([C@H]2C[C@H](O)[C@@H](CO)O2)cc1/C=C\Cl	7/01 (TK-)	HEL	>40 µg/mL
Fc1cccn2cc(-c3ccccc3)cc12	G-31	MRC-5	>40 µM
CC1(C)c2ccccc2N(c2ccccc2)C12C=Nc1c(ccc3ccccc13)O2	OKA (TK+)	HEL	>8.2 µM
O=C(NCc1ccc(Cl)cc1)c1c[nH]c2ccc(CCCO)cc2c1=O	CAR		0.1 µM
CC1(C)[C@H](CCO)C[C@@H]1n1nnc2c(=O)[nH]cnc21	OKA (TK+)		>50 µg/mL
C=Cc1cc([C@H]2C[C@H](O)[C@@H](CO)O2)c(F)cc1F	YS	HEL	>200 µM
Cc1cc([C@H]2C[C@H](O)[C@@H](CO)O2)c(F)cc1F	TK+/YS	HEL	>200 µM
O=c1[nH]c(=O)n([C@@H]2O[C@H](CO)[C@@H](O)[C@@H]2O)cc1/C=C/Br	Kawaguchi acyclovir-resistant mutant A6		0.000113 µg/mL
Cc1cccc(CSCc2cnc3c(Br)cc(Br)c(C)n23)c1	YS (TK+)	HEL	13 µg/mL
CCCCCCCCCCc1cc2cn([C@H]3C[C@H](O)[C@@H](CO)O3)c(=O)nc2o1	OKA	HEL	0.015 µM
CC1(C)[C@@H](CCO)C[C@H]1n1nnc2c(=O)[nH]c(N)nc21	TK+/YS	HEL	>50 µg/mL
O=c1[nH]c(=O)n([C@@H]2O[C@H](CO)[C@@H](O)[C@@H]2F)cc1I	OKA	CCRF-HSB-2	0.21 µM
CCCCCCC#Cc1c[nH]c(=O)[nH]c1=O	07/1	HEL	>80 µM
C=Cc1cn([C@@H]2O[C@H](CO)[C@@H](O)[C@@H]2O)c(=S)[nH]c1=O	CAQU (TK+)	MRC-5	>266.3 µM
COc1nc(=O)n([C@H]2C[C@H](O)[C@@H](CO)O2)cc1/C=C/Cl	YS/R (TK-)	HEL	>40 µg/mL
c1ccn2cc(-c3ccsc3)cc2c1	G-31	MRC-5	40 µM
OC[C@H]1O[C@H](c2ccc(F)cc2F)C[C@@H]1O	(TK+)/OKA	HEL	>200 µM
CC1(C)[C@@H](CCO)C[C@H]1n1nnc2c(Cl)nc(N)nc21	(TK-)/YS/R	HEL	>20 µg/mL
CC1(C)[C@H](CCO)C[C@@H]1n1cnc2c(N)ncnc21	YS (TK+)		28 µg/mL
Nc1nc2c(ncn2[C@@H]2O[C@H](CO)[C@H]2CO)c(=O)[nH]1	TK+/YS	HEL	2.1 µg/mL
CCCCc1ccc(-c2cc3cn(C4CC[C@@H](CO)O4)c(=O)nc3o2)cc1	YS (TK+)	HEL	3.3 µM
OC[C@H]1O[C@@H](c2cc(C(O)CBr)c(F)cc2F)C[C@@H]1O	YS (TK+)	HEL	>20 µg/mL
CN1c2ccc([N+](=O)[O-])cc2C(C)(C)C12C=Cc1ccccc1O2	OKA (TK+)	HEL	>9.9 µM
Cc1cn([C@@H]2O[C@H](CO)[C@H]2CO)c(=O)[nH]c1=O	OKA	HFF	0.02 µg/mL
C#Cc1cn(S(=O)(=O)c2ccc(C)cc2)c(=O)[nH]c1=O	07/1	HEL	>16 µM

A second listing of 7 rows from above:

smiles,strain or isolate,cell line,result
COc1ccc(CSCc2cnc3c(Br)cc(Br)c(C)n23)cc1,07/1 (TK-),HEL,>20 µg/mL
CCCCCCC#Cc1c[nH]c(=O)[nH]c1=O,07/1,HEL,>80 µM
CCCCCCCOCCc1cc2cn([C@H]3C[C@H](O)[C@@H](CO)O3)c(=O)nc2o1,YS,HEL,22 µM
O=c1c2ncn(COC(CO)CO)c2nc2[nH]c(-c3ccccc3)cn12,YS,HEL,3 µg/mL
Nc1nc2c(ncn2[C@@H]2C[C@H](CO)[C@H]2CO)c(=O)[nH]1,TK+/YS,HEL,0.09 µg/mL
OC[C@H]1O[C@@H](c2cc(C#CI)c(F)cc2F)C[C@@H]1O,YS,HEL,>20 µM
CCCCCCCCCCc1cc2cn([C@H]3C[C@H](O)[C@@H](CO)O3)c(=O)nc2o1,YS,HEL,0.008 µM